Results of unrelated studies side by side (data: NIAID ChemDB).

Shared fields: tests in culture; agent: HIV-1; measure: inhibition

a–b is a range or a potency band. Neighbouring rows are from separate reports. Percent inhibition refers to the dose given; in toxicity tests it is the harm to the cells. An empty or dashed field is not shown.

smiles,cell line,setting,strain,tested at,read by,value
O=C(NCCc1ccccc1)Nc1nc2ccc(Cl)cc2s1,MT-4,,,10 µg/mL,RT activity,51%
Cc1ccc(-c2ccc3c(c2)C=C(C(=O)Nc2ccc(C[N+](C)(C)C4CCOCC4)cc2)CCC3)cc1,PBMC,,TB8 CLADE C,1 µM,p24,100%
COC(=O)c1cccc2c(C(=O)C(=O)N3CCN(C(=O)c4ccc(Br)o4)C[C@H]3C)c[nH]c12,HeLa + HELA CD4+/CCR5,,,10 µM,luciferase,>98%
CC1(C)[C@@H](O[C@H]2O[C@H](C(=O)O)[C@@H](O)[C@H](O)[C@H]2O[C@@H]2O[C@H](C(=O)O)[C@@H](O)[C@H](O)[C@H]2O)CC[C@]2(C)[C@H]3C(=O)C=C4[C@@H]5C[C@@](C)(C(=O)O)CC[C@]5(C)CC[C@@]4(C)[C@]3(C)CC[C@@H]12,MOLT-4,6 d,IIIB,1200 µM,cytopathic effect,5.7%
CC1(C)OC(=O)C2(C(=O)O1)[C@@H](c1ccccc1)CC(=O)C[C@H]2[C@H]1COC(C)(C)O1,SupT1,,NL4-3,10 µM,MTT,58%
CCCCCCCCCCCCCCCCOP(=O)(OCCO[C@@H]1O[C@H](CO)[C@@H](O)[C@H](O)[C@@H]1O)OC[C@H]1O[C@@H](n2cc(C)c(=O)[nH]c2=O)C[C@@H]1N=[N+]=[N-],U-937,7 d,LAV-Bru,1 µM,RT activity,0%
CCCCN1C(=O)[C@@H](Cc2ccccc2)NC1=S,MT-4,,,100 µg/mL,RT activity,98%
COc1cccc2[nH]cc(C(=O)C(=O)N3CCN(C(=O)c4ccccc4)C[C@H]3C)c12,HeLa + HELA CD4+/CCR5,,,10 µM,luciferase,>98%
Cc1cn([C@H]2C[C@H](N=[N+]=[N-])[C@@H](COP(=O)(O)OCCO[C@H]3O[C@H](CO)[C@@H](O)[C@H](O)[C@@H]3O)O2)c(=O)[nH]c1=O,CEM,7 d,LAV-Bru,5 µM,RT activity,92%
Cc1ccoc1C(=O)N1CCN(C(=O)C(=O)c2c[nH]c3cccc(F)c23)CC1,HeLa + HELA CD4+/CCR5,,,10 µM,luciferase,>98%
O=C(NCCc1ccccc1)Nc1nc(-c2ccc(Br)cc2)cs1,MT-4,,,10 µg/mL,cytopathic effect / XTT,0%
CCCCCCCCCCCCCCCCOP(=O)(OC[C@H]1OC(O)[C@@H](O)[C@@H](O)[C@@H]1O)OC[C@H]1O[C@@H](n2cc(C)c(=O)[nH]c2=O)C[C@@H]1N=[N+]=[N-],CEM,26 d,LAV-Bru,0.2 µM,RT activity,0%
CC(C)[C@H](NC(=O)[C@H](CO)NC(=O)[C@@H](N)CSSCC(=O)O)C(=O)N[C@H](C(=O)N[C@@H](CSSCC(=O)O)C(=O)NCC(=O)O)[C@@H](C)O,PBMC(PHA STIM.) + PBMC,,BaL,0.66 µM,p24,35%
Cc1cccc2sc(NC(=O)NCCc3ccccc3)nc12,MT-4,,,1 µg/mL,cytopathic effect / XTT,8%
CC(=O)CCC(=O)NCCCOCCOCCCNC(=O)CNC(=O)[C@H](CS)NC(=O)[C@@H](NC(=O)[C@@H](NC(=O)[C@H](CO)NC(=O)[C@@H](N)CS)C(C)C)[C@@H](C)O,PBMC(PHA STIM.) + PBMC,,IIIB,1.32 µM,p24,70%
O=C(C(=O)N1CCN(C(=O)c2ccccc2O)CC1)c1c[nH]c2ccccc12,MT-2,,BRU,10 µM,RT activity,88%
O=C1[C@@H](Cc2ccccc2)NC(=S)N1Cc1ccccc1,MT-4,,,1 µg/mL,RT activity,1%
C[C@@H]1CN(C(=O)c2ccc(Br)o2)CCN1C(=O)C(=O)c1c[nH]c2c(F)ccc(F)c12,HeLa + HELA CD4+/CCR5,,,10 µM,luciferase,>98%
Cc1nnc(NC(=O)NCCc2ccccc2)s1,MT-4,,,10 µg/mL,cytopathic effect / XTT,38%
O=C(C(=O)N1CCN(C(=O)c2cccc(S)c2)CC1)c1c[nH]c2cccc(Cl)c12,HeLa + HELA CD4+/CCR5,,,10 µM,luciferase,>98%
O=C1[C@@H](Cc2ccccc2)NC(=S)N1c1ccccc1,MT-4,,,100 µg/mL,cytopathic effect / XTT,99–100%
CC(C)(C)OC(=O)Nc1ccccc1C(=O)N1CCN(C(=O)C(=O)c2c[nH]c3cccc(Cl)c23)CC1,HeLa + HELA CD4+/CCR5,,,10 µM,luciferase,51%
C[C@H]1[C@H](O)[C@@H](C)/C=C/C=C/C=C/C=C/C=C/C=C/C=C/[C@H](O[C@@H]2O[C@H](C)[C@@H](O)[C@H](N)[C@@H]2O)C[C@@H]2O[C@](O)(C[C@@H](O)C[C@@H](O)CC[C@H](O)[C@@H](O)C[C@@H](O)CC(=O)O[C@H]1C)C[C@H](O)[C@H]2C(=O)O,PBMC,,JV1083 CLADE G R5 (NSI),3.3 µM,p24 / RT activity,90%
O=C(NCCc1ccccc1)Nc1nc2ccccc2s1,MT-4,,,1 µg/mL,cytopathic effect / XTT,53–63%

A second listing of 2 rows from above:

{"smiles": "CCCCN1C(=O)[C@@H](Cc2ccccc2)NC1=S", "cell line": "MT-4", "tested at": "100 µg/mL", "read by": "RT activity", "value": "98%"}
{"smiles": "O=C(NCCc1ccccc1)Nc1nc2ccccc2s1", "cell line": "MT-4", "tested at": "1 µg/mL", "read by": "cytopathic effect / XTT", "value": "53–63%"}